Laboratory results as given in US4661502A (priority 1983, dated 1987).

Tested on: male Wistar rats
Assay: Acute toxicity test
Conditions: intraperitoneal, 5 male Wistar rats; test compounds 6 mg/kg, neostigmine bromide 0.5 mg/kg

| SMILES | Acute toxicity: state of the rats after administration |
| --- | --- |
| CN(C)C(=O)Oc1ccc[n+](COC(=O)c2ccccc2)c1.[Cl-] | All the rats appeared normal |
| CN(C)C(=O)Oc1ccc[n+](COC(=O)C(C)(C)C)c1.[Cl-] | All the rats appeared normal |
